The results in this text go back to the supplement of paper PMC9931576.

Human monoclonal antibodies against the spike receptor-binding domain (heavy:light variable regions). IC50 against pseudoviruses bearing the spike of naturally observed variants; lower = stronger; >10 µg/ml means not reached at the top dose. No active / inactive call. The stated detection limit is 0.0005 µg/ml; values near or below 0.001 µg/ml lie at the floor of the assay.

Test in all cases: pseudovirus neutralization IC50; higher = weaker neutralization
The target in assay [1] is SARS-CoV-2 Omicron BA.1 spike pseudovirus. The protocol:
(§1)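 Single-round VSV luciferase pseudovirus mixed with antibody dilutions for 1 h and put on Huh-7 cells for about a day; IC50 from the dose curve.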

Assay [2] deals with SARS-CoV-2 Omicron BA.2 spike pseudovirus. As to the method: as §1
Assay [3] addresses SARS-CoV-2 Omicron BA.2.75 spike pseudovirus. As to the method:
as §1

The target of assay [4] is SARS-CoV-2 Omicron BA.5 spike pseudovirus. The protocol: as §1
Assay [5] addresses SARS-CoV-2 Omicron BQ.1.1 spike pseudovirus. As to the method: as §1
The target in assay [6] is SARS-CoV-2 Omicron XBB spike pseudovirus. The protocol: as §1
For assay [7], the target named is SARS-CoV-2 early D614G spike pseudovirus. As to the method:
as §1

B1: BD55-5882 (protein)
chain 1: EVQLVESGGGLVQPGRSLRLSCAASGFTFGDYAMHWVRQAPGKGLEWVSGISWNGGSIDYTDSVKGRFTISRDNAKNSLYLQMNSLRAEDTAFYYCAKAYSSGHAYYYGMDVWGQGTTVTVTS
chain 2: DIQMTQSPSSLSASVGDRVTISCRASQTISDYLHWYQQKPGKAPKLLIHVTSSLQSGVPSRFSGSGSGTDFTLTISSLQPEDFATYYCQQSYITPYTFGQGTKLEIK
In the case of B1, the “pseudovirus neutralization IC50” value is more than 10 µg/mL in assay [1]; 0.00634 µg/mL in assay [2]; 0.00626 µg/mL in assay [3]; more than 10 µg/mL in assay [4]; more than 10 µg/mL in assay [5]; more than 10 µg/mL in assay [6]. Further, the “pseudovirus neutralization IC50” value in assay [7] worked out at 0.00178 µg/mL.

B2: BD55-5858 (protein)
chain 1: EVQLVQSGAEVKKPGESLKISCKGSGYGSTTYWIAWVRQKPGKGLEWMGMIYPGDSDTRYSPSFQGQVTISADKSISTAYLQWSSLKASDTAIYYCGRRVGSGTYYDPDYYGVDVWGQGTTVTVSS
chain 2: QSVLTQPPSVSGAPGQRVTISCTGSSSNIGAGYDVHWYQQFPGTAPKLLIFGNSNRPSGVSDRFSGSKSGTSASLAITGLQAEDEADYYCQSSDSSLSGSHVVFGGGTKLTVL
B2: the “pseudovirus neutralization IC50” value in assay [1], in assay [2], in assay [3], in assay [4], in assay [5] and in assay [6] was more than 10 µg/mL each time. Further, in assay [7], the “pseudovirus neutralization IC50” value was 0.308 µg/mL.

B3: BD55-5741 (protein)
chain 1: QVQLVQSGAEVKKPGSSVKVSCRASGDTFSTYAISWVRQAPGQGLEWMGGIIPMHGVAHYAQKFQGRVTITADESTSTAYMELSSLRSEDTAVYYCARVGRSYFHDSSGYWPYFDYWGQGTPVTVSP
chain 2: DIQMTQSPSSLSASVGDRVTITCRASQTISTYLNWYQQKPGKAPKLLIYAASSLQSGVPSKFSGSGSGTDFTLTISSLQPEDFATYYCQQTYSSPYTFGQGTNLEIK
On to B3, for which the “pseudovirus neutralization IC50” value in assay [1] is 0.274 µg/mL; in assay [2], 0.103 µg/mL; in assay [3], 0.148 µg/mL; in assay [4], more than 10 µg/mL; in assay [5], more than 10 µg/mL; in assay [6], more than 10 µg/mL. Besides, in assay [7], the “pseudovirus neutralization IC50” value is 0.00245 µg/mL.

B4: BD55-5737 (protein)
chain 1: QVQLVQSGAEVKKPGASVKLSCKASGYTFTNYHIHWVRQAPGQGLEWMGIINPSGGSTGYGQKFQGRVTMTRDTSTGTVYMELSSLRSDDTAVYYCARDFAFSRAYSGYDILDTSWFDPWGQGTLVTVSS
chain 2: DIVMTQSPDSLAVSLGERATITCKSSQSVLYGSKNQNYLAWYQHKPGQPPKVLIYWASTRQSGVPNRFSGSGSGTEFTLTISSLQAEDVAVYYCQQYYSSPLTFGGGTKVEIK
Consider B4, for which the “pseudovirus neutralization IC50” value in assay [1], in assay [2], in assay [3], in assay [4], in assay [5] and in assay [6] was more than 10 µg/mL throughout. In assay [7], the “pseudovirus neutralization IC50” value amounted to 0.0669 µg/mL.

B5: BD55-5718 (protein)
chain 1: QVQLVQSGSELKKPGTSVKVSCEASGYDFINFPIDWVRQAPGQGLEWMGWINTNTGHPTYAQGFTGRFVFSLDTSINTAYLHIGSLKAEDTAVYYCARDPNYGGEFDHWGQGTLVTVSS
chain 2: DIVMTQSPATLSVSPGERATLSCRASYSFSSSLAWYQQKPGQAPRLLIFGVSTRATGIPARFSGSGSGTEFTLTISSLQSEDVAVYYCQQYYSWPLTFGGGTKVEIK
On to B5, for which the “pseudovirus neutralization IC50” value in assay [1], in assay [2], in assay [3], in assay [4], in assay [5] and in assay [6] was more than 10 µg/mL each time. Moreover, in assay [7], the “pseudovirus neutralization IC50” value is 0.00497 µg/mL.

B6: BD55-5884 (protein)
chain 1: EVQLVESGGGLVKSGGSLRLSCAASGFTFSDFPMHWVRQAPGKGLEFVSSITSDGVGTFYADSVKGRFVISRDSSKNMMYLQMGSLRAEDMAIYYCAREGRYSAYALHLFFDYWGQGTPVTVSS
chain 2: DIQMTQSPSSLSASVGDRVTITCRASQSISNYLNWYQQKPGRAPRLLVYAASNLQSGVPSRFGGSGSGTDFTLTITNLQPEDFATYYCQQSYITPQYTFGQGTKLEIK
As to B6, the “pseudovirus neutralization IC50” value in assay [1], in assay [2], in assay [3], in assay [4], in assay [5] and in assay [6] was more than 10 µg/mL each time. Besides, the “pseudovirus neutralization IC50” value in assay [7] is more than 10 µg/mL.

B7: BD55-5728 (protein)
chain 1: EVQLVQSGAEAKKPGESLKISCQGSGDNFNKYYIAWVRQMPGKGLEWMGFIYPGDSETRYSPSFEGQVTISADKSISTAFLQWRSLKASDTAMYYCARRFVGATVGDLFDYWGQGTLVTVSS
chain 2: DIQMTQSPSSLSASMGDRVTITCRASESINRYLNWYQQRPGKAPKLLIFAASSLQSGVPSRFSGSGSGTDFTLTISSLQPEDFATYYCQQSYISFTFGGGTKVDMK
Regarding B7, the “pseudovirus neutralization IC50” value in assay [1], in assay [2], in assay [3], in assay [4], in assay [5] and in assay [6] was more than 10 µg/mL each time. Further, in assay [7], the “pseudovirus neutralization IC50” value turned out to be 0.0783 µg/mL.

B8: BD55-5844 (protein)
chain 1: QLQLQESGPGLVKPSETLPLTCTVSGASISTGGGHWGWIRQPPGKGLEWIGSIYNSGTTYYNPSLKGRVTISVDTSKNQFSLKLSSVTAADTAVYFCARTAWFGELDDYWGQGTLVTVSS
chain 2: QSVLTQPPSASGTPGQRVTISCSGSSSNIGTNYVYWYQQLPGTAPKLLIYGNNQRPSGVPDRFSGSKSGTSASLAISGLRSEDEADYYCAAWDDSLKVVFGGGTKLTVL
B8: the “pseudovirus neutralization IC50” value in assay [1], in assay [2], in assay [3], in assay [4], in assay [5] and in assay [6] was more than 10 µg/mL each time. The “pseudovirus neutralization IC50” value in assay [7] was more than 10 µg/mL.

B9: BD55-5765 (protein)
chain 1: EVQLLESGGGLEQPGGSLRLSCAASGVTFGTNAMSWVRQAPGKGLEWVSTISYTGGSTYYADSVKGRVTISRDNSKKMLYLQMNSLRAEDTAVYYCACGSTWYGDWNFDLWGRGTLVTVSS
chain 2: QSALTQPRSVSGSPGQSVTISCTGTSSDVGGYNYVSWYQQHPGKAPKLMIYDVSKRPSGVPDRFSGSKSGNTASLTISGLQAEDESNYYCCSYAGSYWVFGGGTKLTVL
B9: the “pseudovirus neutralization IC50” value stood at 0.00253 µg/mL in assay [1]; 0.00589 µg/mL in assay [2]; 0.258 µg/mL in assay [3]; 0.0056 µg/mL in assay [4]; 1.21 µg/mL in assay [5]; 1.34 µg/mL in assay [6]. Further, the “pseudovirus neutralization IC50” value in assay [7] came out at 0.00157 µg/mL.

B10: BD55-1109 (protein)
chain 1: QVQLVQSGTEVKKPGSSVKVSCKISGGTFTNYAITWVRQAPGQGLEWMGRIIPIFAMADYAQKFQGRVTITADKSTSTAYMELSSLKSEDTAIYYCNFDSNTYRELQNWGQGTLVTVSS
chain 2: DIQMTQSPSSLSASIGDRVTITCQASQDIKKSLHWFQQKPGKAPRLLIYDASDLETGVPSRFSGSGSGTDFTLTISSLQPEDLATYFCQQYDNIPLTFGGGTKVDFK
In the case of B10, the “pseudovirus neutralization IC50” value in assay [1] was more than 10 µg/mL; in assay [2], 0.665 µg/mL; in assay [3], more than 10 µg/mL; in assay [4] it was 0.614 µg/mL; in assay [6], more than 10 µg/mL; in assay [7], 0.321 µg/mL.

B11: BD55-5748 (protein)
chain 1: QVQLVQSGAEVKKPGSSVKVSCKASGGTFSSYSIIWVRQAPGQGLDWMGGIIPMFDTPTYAQKFQGRVTISADESTNTAYMELSSLRSEDTAVYYCATPHNFWTGYSSLLETHFDYWGQGTLVTVSS
chain 2: QSALTQPPSASGSPGQSVTISCTGTNSDVGGYNYVSWYQQHPGKAPKLMIYEVTKRPSGVPDRFSGSKSANTASLTVSGLQAEDEADYYCSSYAGSNTLVFGGGTKLTVL
Regarding B11, the “pseudovirus neutralization IC50” value in assay [1], in assay [2], in assay [3], in assay [4], in assay [5] and in assay [6] was more than 10 µg/mL throughout. Besides, the “pseudovirus neutralization IC50” value in assay [7] is 0.0994 µg/mL.

B12: BD55-5854 (protein)
chain 1: QVQLVQSGAEVKKPGSSVKVSCKASGDTFSSYSINWVRQAPGQGPEWMGRIIPMFGIANYAQKFQGRVTITADKSTSTAYMELSSLRSEDTAVYYCATSTYYYDSSGYYPFDYWGQGTWVTVSS
chain 2: DIQMTQSPPSLSASVGDRVTFTCRASQNISNYLHWYQQKPGKAPKLLLYVASSLQSGVPSRFSGRGSGTDFTLTISSLQPEDFATYYCQQSYSTPRTFGQGTKVEIK
Turning to B12, the “pseudovirus neutralization IC50” value in assay [1], in assay [2], in assay [3], in assay [4], in assay [5] and in assay [6] was more than 10 µg/mL throughout. Besides, the “pseudovirus neutralization IC50” value in assay [7] was determined as 0.0161 µg/mL.

B13: BD-505 (protein)
chain 1: EVQLVESGGGLIQPGGSLRLSCAASGFTVSSNYMNWVRQAPGKGLEWVSVIYSGGSTFYADSVKGRFTISRDNSKNTLYLQMNSLRAEDTAVYYCARDRVVYGMDVWGQGTTVTVSS
chain 2: DIQMTQSPSSLSASVGDRVTITCQASQDIINYLNWYQQKPGKAPKLLIYGASNLETGVPSRFSGGGSGTDFTFTISSLQPEDIATYYCHQYDNLPPTFGQGTRLEIK
Take B13: the “pseudovirus neutralization IC50” value in assay [1] worked out at 0.0159 µg/mL; in assay [2] it was 0.0209 µg/mL; in assay [3] it was 0.585 µg/mL; in assay [4], 0.0156 µg/mL; in assay [5], 0.441 µg/mL; in assay [6] it was 0.0292 µg/mL. Also, in assay [7], the “pseudovirus neutralization IC50” value came to 0.0147 µg/mL.
